In PMC6300878, “In vitro antiplasmodial activity, pharmacokinetic profiles and interference in isoprenoid pathway of 2-aniline-3-hydroxy-1.4-naphthoquinone derivatives” (Malaria Journal, 2018):

What was measured:
[1] = system: P. falciparum Dd2 (chloroquine-resistant); assay: microbe, parasite or virus in culture; settings: Plasmodium falciparum
[2] = system: P. falciparum 3D7 (chloroquine-sensitive); assay: microbe, parasite or virus in culture; settings: Plasmodium falciparum
[3] = system: P. falciparum Dd2 (chloroquine-resistant); settings: Dd2 strain; for Mean IC50: 48 h, SYBR Green I
[4] = system: P. falciparum 3D7 (chloroquine-sensitive); settings: 3D7 strain; for Mean IC50: 48 h, SYBR Green I

Q: For `CCN(CC)CCCC(C)Nc1ccnc2cc(Cl)ccc12` (stereo not drawn) [Chloroquine], which IC50 ([1]; DD2, 48 h, read-out: Mean IC50) is on record?
A: 0.15 µg/mL (≈ 0.469 µM)

Q: And the IC50 ([1]; DD2, read-out: Activity class (superscript on mean IC50))?
A: < 10 µg/mL

Q: What about the IC50 ([2]; 3D7, 48 h, read-out: Mean IC50) of the same molecule?
A: 0.012 µg/mL (≈ 0.0375 µM)

Q: What about the IC50 ([2]; 3D7, read-out: Activity class (superscript on mean IC50)) of the same molecule?
A: < 10 µg/mL

Q: Which results are given for `O=C1C(O)=C(Nc2ccccc2)C(=O)c2ccccc21` [4a]?
A: Activity class (superscript on mean IC50) [3]: b (moderate activity^b (10 < IC50 < 100 μg/ml)); Mean IC50 [3]: 11.79 µg/mL; Activity class (superscript on mean IC50) [4]: a (high activity^a (IC50 ≤ 10 μg/ml)); Mean IC50 [4]: 2.99 µg/mL

Q: What does the source list for `COc1ccc(NC2=C(O)C(=O)c3ccccc3C2=O)cc1` [4c]?
A: Activity class (superscript on mean IC50) [3]: b (moderate activity^b (10 < IC50 < 100 μg/ml)); Mean IC50 [3]: 10.10 µg/mL; Activity class (superscript on mean IC50) [4]: a (high activity^a (IC50 ≤ 10 μg/ml)); Mean IC50 [4]: 2.06 µg/mL

In brackets after ≈: the same amount, converted by molar mass. Where two headings read alike, the source gives them in different places.
